{
  "source": "PubChem BioAssay AID1863",
  "about": "(Southern Research Specialized Biocontainment Screening …, 2009)",
  "note": "The list shows a part of the results, in another mix than the full data. Measured potencies and affinities stand elsewhere. Activity calls are given as the source filed them.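 How the source made its calls: active means inhibition over 29.93%, a cutoff 3 SD above the screen mean, later confirmed by dose response; inconclusive means inhibition over 29.93% but no dose response follow-up; inactive means inhibition at most 29.93% or unconfirmed.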",
  "data": [
    {"experiment": "PhoP-dependent GFP reporter repression – Salmonella Typhimurium, primary screen (AID 1863);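 further: 0% = low Mg2+ inducing control and 100% = high Mg2+ repressing control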", "conditions": "S. Typhimurium PhoP-regulated promoter GFP reporter, 4 h; at 50 µM; active compounds read high", "values": [
      {"smiles": "COc1ccc(CN(CCCl)CCCl)cc1Cl", "inhibition": "inactive: -4.96%"},
      {"smiles": "CN(C)c1cccc(C(=O)NCC2(N3CCCCC3)CCCCC2)c1", "inhibition": "inactive: -0.63%"},
      {"smiles": "CC(C)c1ccc(NC2CCN(C(=O)OC(C)(C)C)CC2)cc1", "inhibition": "inactive: -3.01%"},
      {"smiles": "COc1cc(OC)c(C(=O)NCC2(N(C)C)CCCCC2)cc1OC", "inhibition": "inactive: -3.34%"},
      {"smiles": "CCCOc1ccc(C(=O)NCC2(N(C)C)CCCCC2)cc1OC", "inhibition": "inactive: 5.09%"},
      {"smiles": "O=C(NCC1(N2CCCCC2)CCCCC1)c1ccc(OC(F)F)cc1", "inhibition": "inactive: -9.27%"},
      {"smiles": "O=C(NCC1(N2CCCCC2)CCCCC1)c1cccc([N+](=O)[O-])c1", "inhibition": "inactive: -2.72%"},
      {"smiles": "CCN1CCC(Nc2ccc(Cl)cc2)CC1", "inhibition": "inactive: 1.76%"},
      {"smiles": "N#CC1(Nc2ccccc2)CCN(CCc2ccccc2)CC1", "inhibition": "inactive: 2.89%"},
      {"smiles": "O=C(NCC1(N2CCCCC2)CCCCC1)c1cccc(C(F)(F)F)c1", "inhibition": "inactive: -1.83%"},
      {"smiles": "COc1ccc(NC2CCN(C(=O)OC(C)(C)C)CC2)cc1", "inhibition": "inactive: -7.37%"},
      {"smiles": "CN1CCN(CCOC(=O)C(O)(c2ccccc2)c2ccccc2)CC1", "inhibition": "inactive: -26.3%"},
      {"smiles": "O=C(NCC1(N2CCOCC2)CCCCC1)c1cc(=O)[nH]c2ccccc12", "inhibition": "inactive: 22.3%"},
      {"smiles": "COc1cc(C(=O)NCC2(N3CCCCC3)CCCCC2)ccc1OC(F)F", "inhibition": "inactive: 0.24%"},
      {"smiles": "CCOc1ccc(C)cc1CN(CCCl)CCCl", "inhibition": "inactive: -13.6%"},
      {"smiles": "O=C(NCC1(N2CCCCC2)CCCCC1)c1ccc(F)cc1", "inhibition": "inactive: -0.4%"},
      {"smiles": "CCOC(=O)N1CCC(Nc2ccc(F)cc2)CC1", "inhibition": "inactive: 10.9%"},
      {"smiles": "COc1ccc(NC2CCN(CCc3ccccc3)CC2)c(OC)c1", "inhibition": "inactive: 4.63%"},
      {"smiles": "CCOC(=O)N1CCC(Nc2cccc(C)c2)CC1", "inhibition": "inactive: 8.01%"},
      {"smiles": "COc1cc(C(=O)NCC2(N(C)C)CCCCC2)ccc1OC(F)F", "inhibition": "inactive: 5.46%"},
      {"smiles": "Cc1ccc(OCC(C)C)c(CN(CCCl)CCCl)c1", "inhibition": "inactive: -4.22%"},
      {"smiles": "O=C(NCC1(N2CCCCC2)CCCCC1)c1ccc(=O)[nH]c1", "inhibition": "inactive: 8.1%"},
      {"smiles": "O=C(NCC1(N2CCCCC2)CCCCC1)c1cccs1", "inhibition": "inactive: -6.94%"},
      {"smiles": "COc1ccc(C(=O)NCC2(N3CCCCC3)CCCCC2)cc1", "inhibition": "inactive: 1.6%"},
      {"smiles": "COc1ccc(C(=O)NCC2(N3CCCCC3)CCCCC2)c(OC)c1OC", "inhibition": "inactive: -1.51%"},
      {"smiles": "CC(C)(C)OC(=O)N1CCC(N(C(=O)c2ccccc2)c2ccc(F)cc2)CC1", "inhibition": "inactive: -6.9%"},
      {"smiles": "CSc1ccccc1C(=O)NCC1(N2CCCCC2)CCCCC1", "inhibition": "inactive: -5.26%"},
      {"smiles": "O=C(NCC1(N2CCOCC2)CCCCC1)c1cc2ccccc2o1", "inhibition": "inactive: -2.23%"},
      {"smiles": "O=C(NCC1(N2CCCCC2)CCCCC1)c1ccc(Cl)nc1", "inhibition": "inactive: 2.09%"},
      {"smiles": "Cc1cc(C)cc(N(C(=O)c2ccccc2)C2CCN(C(=O)OC(C)(C)C)CC2)c1", "inhibition": "inactive: 11.5%"},
      {"smiles": "CCOC(=O)N1CCC(Nc2ccc(OC)cc2)CC1", "inhibition": "inactive: -3.89%"},
      {"smiles": "N#CC1(Nc2ccccc2)CCN(Cc2ccccc2)CC1", "inhibition": "inactive: -2.98%"},
      {"smiles": "O=C(OC1CN2CCC1CC2)C1c2ccccc2Oc2ccccc21", "note": "(stereo not drawn)", "inhibition": "inactive: 6.58%"},
      {"smiles": "CCOc1ncccc1C(=O)NCC1(N2CCOCC2)CCCCC1", "inhibition": "inactive: -1.65%"},
      {"smiles": "CN1CCC(Nc2ccc(F)c(Cl)c2)CC1", "inhibition": "inactive: -7.34%"},
      {"smiles": "CCCOc1ccc(C(=O)NCC2(N(C)C)CCCCC2)cc1", "inhibition": "inactive: -2.31%"},
      {"smiles": "CC(C)(C)OC(=O)N1CCC(Nc2ccccc2)CC1", "inhibition": "inactive: 1.61%"},
      {"smiles": "O=C(O)C1(Nc2ccccc2)CCN(Cc2ccccc2)CC1", "inhibition": "inactive: -4.96%"},
      {"smiles": "CCC(CO)(C(=O)OC1CN2CCC1CC2)c1ccccc1", "note": "(stereo not drawn)", "inhibition": "inactive: -4.03%"},
      {"smiles": "COc1cccc(C(=O)N(c2cc(C)cc(C)c2)C2CCN(C(=O)OC(C)(C)C)CC2)c1", "inhibition": "inactive: -4.27%"},
      {"smiles": "COc1cc(OC)cc(C(=O)NCC2(N3CCOCC3)CCCCC2)c1", "inhibition": "inactive: 5.31%"},
      {"smiles": "CCCOc1ccc(C)cc1CN(CCCl)CCCl", "inhibition": "inactive: -9.5%"},
      {"smiles": "CN1CCC(Nc2ccc(Cl)cc2)CC1", "inhibition": "inactive: -6.01%"},
      {"smiles": "COc1cc(OC)cc(C(=O)NCC2(N3CCCCC3)CCCCC2)c1", "inhibition": "inactive: 3.45%"},
      {"smiles": "Cc1ccc(C(=O)NCC2(N3CCCCC3)CCCCC2)o1", "inhibition": "inactive: 8.39%"},
      {"smiles": "Fc1ccccc1NC1CCN(Cc2ccccc2)CC1", "inhibition": "inactive: 7.46%"},
      {"smiles": "CCN1CCC(Nc2cccc(F)c2)CC1", "inhibition": "inactive: 11.2%"},
      {"smiles": "CN(C)c1ccc(C(=O)NCC2(N3CCCCC3)CCCCC2)cc1", "inhibition": "inactive: -0.54%"},
      {"smiles": "CC(C)(C)OC(=O)N1CCC(N(C(=O)c2ccccc2)c2ccc(Cl)cc2)CC1", "inhibition": "inactive: 10.9%"},
      {"smiles": "N#Cc1ccc(C(=O)NCC2(N3CCCCC3)CCCCC2)cc1", "inhibition": "inactive: 6.81%"},
      {"smiles": "c1ccc(CN2CCC(Nc3ccccc3)CC2)cc1", "inhibition": "inactive: 13.3%"},
      {"smiles": "CCCN1CCC(Nc2cc(OC)cc(OC)c2)CC1", "inhibition": "inactive: -1.54%"},
      {"smiles": "CN(C)C1(CNC(=O)c2cccc(C#N)c2)CCCCC1", "inhibition": "inactive: -1.29%"},
      {"smiles": "COc1ccc(C(=O)NCC2(N3CCOCC3)CCCCC2)cc1OC", "inhibition": "inactive: 2.33%"},
      {"smiles": "N/C(=N\\O)c1c(N)no[n+]1[O-]", "inhibition": "inactive: 3.91%"},
      {"smiles": "CCOC(=O)N1CCC(Nc2ccc(C)cc2)CC1", "inhibition": "inactive: -3.94%"},
      {"smiles": "CCc1cc(C(=O)NCC2(N3CCCCC3)CCCCC2)sc1C", "inhibition": "inactive: -4.19%"},
      {"smiles": "O=C(OC1CN2CCC1CC2)C1c2ccccc2C=Cc2ccccc21", "note": "(stereo not drawn)", "inhibition": "inactive: 12.7%"}
    ]}
  ]
}
